Key:
Aspergillus niger lipase [1] = experiment: Fluorescence quenching of lipase (Stern-Volmer and double-logarithmic plots); format: binding; details: pH 7.4
Description: Lipase and HSA were dialyzed against KCl- buffer (pH 7) for 24 hrs. Stock solution of lipase was prepared in 10 mM phosphate buffer at pH 7.4 to obtain a particular concentration. […] These samples were incubated at 298.0 K for about 24 hrs.
Fluorescence spectra were recorded on Hitachi F-4010 spectrofluorometer equipped with circulating water bath to maintain the temperature of the cell. The quartz cell of path length 1.0 cm and band slit of 5.0 nm were used for all experiments. The excitation wavelength was 280 nm for lipase and HSA. Emission spectra were recorded from 300–450 nm for lipase and HSA protein.
Herein, the fluorescence intensities were corrected for absorption of the exciting light and reabsorption of the emitted light to decrease the inner filter effect according to the following equation [10] (Chi & Liu, 2011): Fcorr=Fobs10^Aex+Aem/2, Where Fcorr and Fobs are corrected and experimentally measured fluorescence intensities, respectively. […] The fluorescence intensity utilized in this paper was the corrected intensity.
Emission fluorescence spectra were measured in the 300–450 nm interval, at a fixed excitation wavelength of 280 nm. Occurrence of an emission maximum at 344 nm in the fluorescence spectrum of lipase can be attributed to the presence of tryptophan residue of lipase. […]

Aspergillus niger lipase [2] = experiment: Far-UV circular dichroism of lipase; details: 24 hours at 298.15 K, pH 7.4, native -9.34

Row | Compound | n (stoichiometry of association process / number of binding sites) (Aspergillus niger lipase [1]) | MRE x 10^3 at 222nm (complex_400 μM) (Aspergillus niger lipase [2])
1 | C=CC(C)(O)CCC=C(C)C (stereo not shown) [linalool] | 1.12 | -8.74
2 | Cc1ccc(C(C)C)c(O)c1 [thymol] | 2.52 | -6.69

From paper PMC9135303, “Interaction of fungal lipase with potential phytotherapeutics” (PLoS ONE, 2022)
